The source of these data is the supplement of paper PMC3578754.

What all share (test): fold change of IC50 against reference virus; higher = more resistant
Compound in one assay: Nc1ccn([C@H]2CC[C@@H](CO)O2)c(=O)n1 [zalcitabine]
As for the experimental part:
(§1)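 Cell-culture drug susceptibility tests of virus bearing the reverse transcriptase of each isolate, gathered from many studies.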

Compound in another assay: Cc1cn([C@H]2C=C[C@@H](CO)O2)c(=O)[nH]c1=O [stavudine]
How it is done:
as §1

Compound in another assay: O=C1Nc2ccc(Cl)cc2[C@@](C#CC2CC2)(C(F)(F)F)O1 [efavirenz]
As for the experimental part:
as §1

Compound in another assay: Nc1nc(NC2CC2)c2ncn([C@H]3C=C[C@@H](CO)C3)c2n1 [abacavir]
As for the experimental part:
as §1

Compound in a further assay: O=c1[nH]cnc2c1ncn2[C@H]1CC[C@@H](CO)O1 [didanosine]
How it is done:
as §1

Compound in another assay: Cc1ccnc2c1NC(=O)c1cccnc1N2C1CC1 [nevirapine]
As for the experimental part:
as §1

Compound in another assay: CC(C)Nc1cccnc1N1CCN(C(=O)c2cc3cc(NS(C)(=O)=O)ccc3[nH]2)CC1 [delavirdine]
As for the experimental part:
as §1

Compound in a further assay: Cc1cn([C@H]2C[C@H](N=[N+]=[N-])[C@@H](CO)O2)c(=O)[nH]c1=O [zidovudine]
How it is done:
as §1

Fold change is the IC50 on the isolate divided by the IC50 on a reference virus; 1 = unchanged, higher = more resistant. Changes are given against the subtype B consensus. No active / inactive call. The values were gathered from many studies (numbered anew) with different assays, which the source does not name. Most viruses are clinical isolates; some are laboratory strains or clones with known resistance changes. Isolates with mixed residues are left out; stretches that were not sequenced show no change. Round top values that many isolates share are read here as limits; other very high values and 0.1 may be limits too.

On to “HIV-1 isolate 292 (reverse transcriptase changes: V35I I50F R83K D123E I135T A272P, study 40)”, for which the “fold change of IC50 against reference virus” value (shortened to “fold change of IC50”) with zalcitabine, in the assay with stavudine, with efavirenz, with abacavir, with didanosine and with nevirapine was 1 in each case. The “fold change of IC50” value with delavirdine and with zidovudine was 1 each time.
Turning to “HIV-1 isolate 1270 (reverse transcriptase changes: V60I D121Y K122E D177E M184V, study 28)”, the “fold change of IC50” value with zalcitabine amounted to 1.7; with stavudine it was 0.7; with efavirenz, 0.5; with abacavir, 3.7; in the assay with didanosine, 1.1; in the assay with nevirapine, 0.4. Also, the “fold change of IC50” value with delavirdine was determined as 0.8; in the assay with zidovudine it was 0.5.
In the case of “HIV-1 isolate 1153 (reverse transcriptase changes: K20R M41L R83K K122P E138A K166R V179I M184V T200A L210W T215Y, study 40)”, the “fold change of IC50” value was found to be 2 with zalcitabine; 1 with stavudine; 1 in the assay with efavirenz; 5 with abacavir; 3 in the assay with didanosine; 1 in the assay with nevirapine. The “fold change of IC50” value in the assay with delavirdine was determined as 1; with zidovudine, 225.
Turning to “HIV-1 isolate 1083 (reverse transcriptase changes: D123E I142T D177E V245I D250E I293V A376T A400S, study 54)”, the “fold change of IC50” value in the assay with zalcitabine turned out to be 1; with stavudine it was 0.8; with efavirenz, 1.2; with abacavir it was 0.8; in the assay with didanosine, 1; with nevirapine it was 1.2. Besides, the “fold change of IC50” value is 2.1 with delavirdine and 0.8 with zidovudine.
Regarding “HIV-1 isolate 1426 (reverse transcriptase changes: D67N K70R L74V A98S L100I K103N I135T K166R M184V R211K F214L K219Q H221Y L228R V245M A272P K277R T286A E297K, study 15)”, the “fold change of IC50” value was determined as 2.3 with zalcitabine; 1.3 with stavudine; 1500 with efavirenz; 7.4 in the assay with abacavir; 2.4 with didanosine; 215 with nevirapine. The “fold change of IC50” value came out at 400 with delavirdine and 1.6 in the assay with zidovudine.
Take “HIV-1 isolate 360 (reverse transcriptase changes: M41L D67N K70R V118I K122E I135T S162D D177E M184V T200E E203D F214L T215F K219Q V245K E297A, study 116)”: the “fold change of IC50” value was determined as 2.1 with zalcitabine; 1.8 with stavudine; 0.3 with efavirenz; 4.6 with abacavir; 1.5 in the assay with didanosine; 0.4 with nevirapine. For the same test system, the “fold change of IC50” value in the assay with delavirdine was determined as 0.2; in the assay with zidovudine it was 23.
Take “HIV-1 isolate 723 (reverse transcriptase changes: K49R L92F A98S K102Q K103R D121H S162D K166R V179I M184V T200A R211K F214L, study 28)”: the “fold change of IC50” value with zalcitabine is 2.3; with stavudine, 1; with efavirenz, 0.2; with abacavir, 4.2; with didanosine it was 1.6; with nevirapine it was 1. The results for the “fold change of IC50” value with delavirdine and with zidovudine were 0.5 and 1, respectively.
As for “HIV-1 isolate 865 (reverse transcriptase changes: D67N T69D K101E K122E Y181C G190A I202V T215Y K219N A272P K277R Q278E T286A E297K G335D R356K M357R K366R A376V T386A A400T, study 54)”, the “fold change of IC50” value with zalcitabine is 1.1; in the assay with stavudine, 1.7; in the assay with efavirenz it was 101; with abacavir, 1.9; in the assay with didanosine it was 1.8; with nevirapine, 893. For the same test system, the entries for the “fold change of IC50” value with delavirdine and with zidovudine were 19.7 and 7.3, respectively.
Consider “HIV-1 isolate 1511 (reverse transcriptase changes: T128A I135T T165I T200A F214L A272T I293V K366R A376T A400T, study 54)”, for which the “fold change of IC50” value with zalcitabine was 1.1; in the assay with stavudine, 1.1; in the assay with efavirenz, 0.9; with abacavir, 1; with didanosine, 1; in the assay with nevirapine it was 0.9. Also, the results for the “fold change of IC50” value with delavirdine and in the assay with zidovudine were 0.8 and 0.9, respectively.
In the case of “HIV-1 isolate 321 (reverse transcriptase changes: T39A D67N R83K D123E D177E G196E I202V Q207K R211A T215L K219Q K277R I293V Q334L K390R A400S, study 54)”, the “fold change of IC50” value stood at 1 with zalcitabine; 1.2 with stavudine; 0.4 with efavirenz; 0.7 in the assay with abacavir; 1.1 with didanosine; 0.3 in the assay with nevirapine. For the same test system, the “fold change of IC50” value turned out to be 0.5 with delavirdine and 1.2 in the assay with zidovudine.
With “HIV-1 isolate 846 (reverse transcriptase changes: K102Q Q151M S162C K277R, study 110)”, the “fold change of IC50” value with zalcitabine is 2.2; in the assay with stavudine, 2.9; with efavirenz it was 1.9; in the assay with abacavir, 5.7; with didanosine, 6.8; in the assay with nevirapine, 1.9. Moreover, the results for the “fold change of IC50” value with delavirdine and with zidovudine were 2.7 and 7.4, respectively.
For the test system “HIV-1 isolate 84 (reverse transcriptase changes: K103N V108I I135T I178L M184V T200A T215Y A272P, study 15)”, the “fold change of IC50” value with zalcitabine worked out at 2.1; in the assay with stavudine, 1.5; with efavirenz, 87; in the assay with abacavir, 5.7; in the assay with didanosine, 1.8; in the assay with nevirapine it was 230. Also, the entries for the “fold change of IC50” value with delavirdine and with zidovudine were 42 and 2.7, respectively.
“HIV-1 isolate 1226 (reverse transcriptase changes: I142V S162C M184V R211K, study 28)”: the “fold change of IC50” value in the assay with zalcitabine was 1.5; with stavudine, 0.7; with efavirenz it was 1.3; with abacavir, 2.9; in the assay with didanosine, 1.3; with nevirapine it was 1.1. Also, the “fold change of IC50” value with delavirdine is 2; with zidovudine, 0.3.
Regarding “HIV-1 isolate 555 (reverse transcriptase changes: K20R M41L S48P K49R D76N N81Y K102Q K122E I135T Q174H D177E V179I M184V Q207E R211K T215Y L228H L260V A272S R284K, study 40)”, the “fold change of IC50” value in the assay with zalcitabine stood at 3; with stavudine, 3; in the assay with efavirenz it was 1; with abacavir it was 9; with didanosine, 2; with nevirapine, 1. Further, the “fold change of IC50” value with delavirdine is 1; with zidovudine, 488.
Turning to “HIV-1 isolate 834 (reverse transcriptase changes: K20R K101Q K122E I142V T165I M184V K277R A288S I293V, study 119)”, the “fold change of IC50” value with zalcitabine stood at 1.9; in the assay with stavudine, 0.9; in the assay with efavirenz it was 2.1; with abacavir it was 3.1; with didanosine, 1.6; in the assay with nevirapine, 2.2. In addition, the entries for the “fold change of IC50” value in the assay with delavirdine and with zidovudine were 1.4 and 0.9, respectively.
With “HIV-1 isolate 1210 (reverse transcriptase changes: S48T K122E I135M M184V P243T, study 28)”, the “fold change of IC50” value with zalcitabine turned out to be 1.5; in the assay with stavudine, 0.6; with efavirenz it was 0.2; with abacavir it was 1.7; with didanosine, 1.1; with nevirapine, 0.3. For the same test system, the “fold change of IC50” value was found to be 0.5 with delavirdine and 0.3 in the assay with zidovudine.
